The values below come from PubChem BioAssay AID1986 (Sanford-Burnham Center for Chemical Genomics, 2009).

The entries are a selection whose mix differs from that of the whole data set. Some structures show a salt or complex split into parts, the way the source records it. Calls of active or inactive are those of the source. Cut-off read from the data, not from the text of the source: active = inhibition mostly above about 52% (no sharp cut-off); inactive = mostly below about 76%.

The nature of the test: inhibitors of HIV fusion peptide binding, primary screen, biochemical, uHTS, fluorescence dequenching (AID 1986). The conditions noted are these: HIV Env-mediated cell-cell fusion, fluorescence reporter; at 20 µM; hits give high values.
As a reminder, the inhibition is the drop in the measured response relative to a control, in per cent. For the compound `CP(=S)(Nn1cnnc1)Oc1ccccc1` (stereo not given), the inhibition was inactive: 1.4%.

With `CP(=O)(Nc1ccccc1Br)Oc1ccccc1` (stereo not given), the inhibition is inactive: -0.2%.

On to `COc1ccccc1OP(C)(=O)Nc1ccccc1` (stereo not given), for which the inhibition is inactive: -1%.

`Cc1cccc(C)c1OP(C)(=O)Nc1ccc(SC(F)(F)F)cc1` (stereo not given): the inhibition is inactive: 1.1%.

Consider `CP(=O)(Nc1ccc(SC(F)(F)F)cc1)Oc1ccc(Cl)cc1` (stereo not given), for which the inhibition is inactive: 1.5%.

Regarding `CP(=O)(Oc1ccccc1)OC(c1ccccc1)C(F)(F)F` (stereo not given), the inhibition was inactive: -1.7%.

As for `CCc1ccc(OP(C)(=O)N2CCN(c3ccc([N+](=O)[O-])cc3)CC2)cc1` (stereo not given), the inhibition was inactive: -1.8%.

Regarding `CP(=O)(NC(=O)Nc1ccccc1)Oc1ccccc1` (stereo not given), the inhibition is inactive: 0.8%.

`Cc1cc(C)cc(OP(C)(=O)Nc2ccc(SC(F)(F)F)cc2)c1` (stereo not given): the inhibition is inactive: 2.3%.

Consider `CCOC(=O)c1ccc(NP(C)(=O)Oc2ccc(OC)cc2)cc1` (stereo not given), for which the inhibition was inactive: 5.6%.

For the compound `CCOP(C)(=S)SCC(=O)NC(C)C(=O)O` (stereo not given), the inhibition is inactive: -3.3%.

Take `CP(=O)(Nc1ccccn1)Oc1ccc(Cl)cc1` (stereo not given): the inhibition was inactive: -0.6%.

In the case of `CCN(CC)CCCOC(=O)C(O)(c1ccccc1)c1ccccc1`, the inhibition was inactive: -1.1%.

Regarding `O=[N+]([O-])c1ccc2c(c1)C=Nc1ccccc1O2`, the inhibition was inactive: -2.6%.

As to `CC(C)(C)c1ccc(OP(C)(=O)Nc2ccc(SC(F)(F)F)cc2)cc1` (stereo not given), the inhibition is inactive: 4.6%.

With `Cc1cccc(C)c1OP(C)(N)=O` (stereo not given), the inhibition is inactive: -0.5%.

Turning to `COc1ccccc1OP(C)(=O)Nc1ccc(C)cc1` (stereo not given), the inhibition is inactive: 1%.

With `Cc1ccc(NP(C)(=O)Oc2ccccc2)c(C)c1` (stereo not given), the inhibition was inactive: -2.6%.

As to `CCOC(=O)c1ccc(NP(C)(=O)Oc2ccccc2)cc1` (stereo not given), the inhibition is inactive: -1.9%.

With `Cc1cc(C)cc(OP(C)(N)=O)c1` (stereo not given), the inhibition is inactive: -3.3%.

On to `COc1ccccc1OP(C)(=O)Nc1cc(Cl)ccc1C` (stereo not given), for which the inhibition is inactive: -0.9%.

With `COc1ccc(OP(C)(=O)Nc2cccc(F)c2)cc1` (stereo not given), the inhibition was inactive: -1.4%.

Take `O=C(O)c1cccc(Nc2c([N+](=O)[O-])cc([N+](=O)[O-])cc2[N+](=O)[O-])c1`: the inhibition is inactive: -2.1%.

On to `CC1=NCCc2c1[nH]c1ccccc21.O=[N+]([O-])c1cc([N+](=O)[O-])c(O)c([N+](=O)[O-])c1`, for which the inhibition is inactive: 3.9%.

Take `COc1ccccc1OP(C)(=O)Nc1cccc(Br)c1` (stereo not given): the inhibition is inactive: 2.1%.

Regarding `CCOC(=O)c1ccc(NP(C)(=O)Oc2cc(C)cc(C)c2)cc1` (stereo not given), the inhibition was inactive: 1.5%.

For `Cc1cc(C)cc(OP(C)(=O)Nc2ccc(C)cc2C)c1` (stereo not given), the inhibition is inactive: -0.8%.

Take `Cc1ccc(C)c(NP(C)(=O)Oc2ccccc2)c1` (stereo not given): the inhibition was inactive: -1.4%.

As to `CP(=O)(Nc1cccc(Br)c1)Oc1ccccc1` (stereo not given), the inhibition is inactive: -1.6%.

`Cc1cc(C)cc(OP(C)(=O)Nc2ccccn2)c1` (stereo not given): the inhibition was inactive: 2%.

On to `O=[N+]([O-])c1cc([N+](=O)[O-])c(-n2nnc3ccccc32)c([N+](=O)[O-])c1`, for which the inhibition is inactive: 0.2%.

Take `Cc1nc2ccc3ccccc3c2s1.O=[N+]([O-])c1cc([N+](=O)[O-])c(O)c([N+](=O)[O-])c1`: the inhibition was inactive: -3.7%.

Take `O=[N+]([O-])c1cc([N+](=O)[O-])c(Nc2nnnn2CCO)c([N+](=O)[O-])c1`: the inhibition was inactive: -3.9%.

For the compound `CCOC(=O)C(CC)C1=NC(C)(C)Cc2ccccc21.O=[N+]([O-])c1cc([N+](=O)[O-])c(O)c([N+](=O)[O-])c1` (stereo not given), the inhibition is inactive: 0.6%.

In the case of `COc1ccccc1OP(C)(=O)Nc1c(C)cccc1C` (stereo not given), the inhibition is inactive: 2.6%.

As to `CN1CCCCC1COC(=O)C1(O)c2ccccc2CCc2ccccc21` (stereo not given), the inhibition is inactive: -0.9%.

In the case of `CP(=O)(Nc1ccc(SC(F)(F)F)cc1)Oc1ccccc1` (stereo not given), the inhibition was inactive: -1.9%.

Consider `CCCOc1ccc(NP(C)(=O)Oc2ccc(Cl)cc2)cc1` (stereo not given), for which the inhibition was inactive: -1.3%.

Take `COc1ccc(OP(C)(=O)Nc2cccc(Br)c2)cc1` (stereo not given): the inhibition was inactive: 0.2%.

On to `CN(C)CCOC(=O)C(O)(c1ccccc1)C1CCCCC1` (stereo not given), for which the inhibition is inactive: 3.2%.

With `COc1ccc(NP(C)(=O)Oc2ccccc2OC)cc1` (stereo not given), the inhibition was inactive: -0.8%.

Take `O=[N+]([O-])c1ccc(OP2(=O)COCCO2)cc1` (stereo not given): the inhibition was inactive: -0.7%.

On to `O=[N+]([O-])c1cc([N+](=O)[O-])c(NCC2CCS(=O)(=O)C2)c([N+](=O)[O-])c1` (stereo not given), for which the inhibition is inactive: -4.2%.

As for `Cc1cc(-c2cccc3ccccc23)c(C)cn1.O=[N+]([O-])c1cc([N+](=O)[O-])c(O)c([N+](=O)[O-])c1`, the inhibition was inactive: -0.8%.

With `CP(=O)(Nc1ccc(SC(F)(F)F)cc1)Oc1ccc(F)cc1` (stereo not given), the inhibition is inactive: 0.8%.

On to `CCOP(C)(=S)SCC(=O)NC(C)(CC)C(=O)O` (stereo not given), for which the inhibition is inactive: -1.3%.

With `CP(=O)(Nc1ccc2c(c1)OCCO2)Oc1ccccc1` (stereo not given), the inhibition was inactive: -1.7%.

Consider `Cc1ccccc1NP(C)(=O)Nc1ccccc1C`, for which the inhibition is inactive: -0.2%.

As to `CP(=O)(Nc1ccccc1F)Oc1ccccc1` (stereo not given), the inhibition was inactive: 2.3%.

Take `CC(C)c1ccc(OP(C)(=O)Nc2ccc(SC(F)(F)F)cc2)cc1` (stereo not given): the inhibition is inactive: 1.2%.

`O=C(OC1CN2CCC1CC2)c1ccc([N+](=O)[O-])cc1` (stereo not given): the inhibition is inactive: -1.2%.

Regarding `O=C(OCCN1CCN(CCOCc2ccccc2)CC1)C(O)(c1ccccc1)c1ccccc1`, the inhibition is inactive: -1%.

For the compound `COc1ccc2c(c1O)-c1c(O)c(OC)cc3c1[C@H](C2)[N+](C)(C)CC3.O=[N+]([O-])c1cc([N+](=O)[O-])c([O-])c([N+](=O)[O-])c1[O-]`, the inhibition is inactive: 2.7%.

`CCOC(=O)c1ccc(NP(C)(=O)Oc2ccc(F)cc2)cc1` (stereo not given): the inhibition was inactive: -3.2%.

As for `COc1ccc(OP(C)(=O)Nc2ccc(SC(F)(F)F)cc2)cc1` (stereo not given), the inhibition is inactive: 0.5%.

Regarding `CCN(CC)CCCOC(=O)C(O)(c1ccccc1)C1CCCCC1` (stereo not given), the inhibition was inactive: 0%.

`CP(=O)(Nc1ccccc1)Oc1ccc(F)cc1` (stereo not given): the inhibition was inactive: -0.3%.

Turning to `CCCCCOc1ccc(NP(C)(=O)Oc2ccc(Cl)cc2Cl)cc1` (stereo not given), the inhibition is inactive: -0.5%.

As for `O=[N+]([O-])c1cc([N+](=O)[O-])c(OC2CCCCC2O)c([N+](=O)[O-])c1` (stereo not given), the inhibition was inactive: 3.3%.

Turning to `Cc1cc(C)cc(OP(C)(=O)Nc2cccc(C(F)(F)F)c2)c1` (stereo not given), the inhibition was inactive: -1.1%.

On to `COc1ccccc1OP(C)(=O)Nc1ccc(C)c(C)c1` (stereo not given), for which the inhibition is inactive: 1%.

Regarding `COc1ccc(OP(C)(=O)Nc2ccccc2Br)cc1` (stereo not given), the inhibition is inactive: 3%.

For the compound `Cc1nc2ccc3ccccc3c2o1.O=[N+]([O-])c1cc([N+](=O)[O-])c(O)c([N+](=O)[O-])c1`, the inhibition is inactive: 21.9%.

For `CP(=O)(OCCOc1ccccc1)OCCOc1ccccc1`, the inhibition is inactive: 0.5%.

For the compound `CP(=O)(Nc1ccc(Cl)cc1Cl)Oc1ccccc1` (stereo not given), the inhibition is inactive: -1.9%.

For `COc1ccccc1OP(C)(=O)Nc1ccc(Br)cc1` (stereo not given), the inhibition is inactive: -2%.

For `COc1ccc(OP(C)(=O)Nc2ccccn2)cc1` (stereo not given), the inhibition was inactive: -0.4%.

With `CN(C)CCOC(=O)C(O)(c1ccccc1)C1CCCC1` (stereo not given), the inhibition is inactive: 2.3%.

Turning to `O=[N+]([O-])c1cc([N+](=O)[O-])c(Nc2ccccn2)c([N+](=O)[O-])c1`, the inhibition is inactive: -3%.

`Cc1c(NP(C)(=O)Oc2ccc(C(C)C)cc2)c(=O)n(-c2ccccc2)n1C` (stereo not given): the inhibition was inactive: 1.3%.

For `CP(=O)(Nc1ccccn1)Oc1ccccc1` (stereo not given), the inhibition was inactive: 2%.

Regarding `COc1ccccc1OP(C)(=O)Nc1ccc(C)cc1C` (stereo not given), the inhibition was inactive: -2.2%.

Regarding `CCc1ccc(OP(C)(=O)O)cc1`, the inhibition is inactive: -1%.

Regarding `CCN(CC)CC(O)COC(=O)C(O)(c1ccccc1)C1CCCCC1` (stereo not given), the inhibition is inactive: 1.3%.

Turning to `COc1ccc(OP(C)(=O)Nc2ccc(Br)cc2)cc1` (stereo not given), the inhibition was inactive: 0.4%.

On to `COc1ccccc1OP(C)(=O)Nc1c(C)n(C)n(-c2ccccc2)c1=O` (stereo not given), for which the inhibition is inactive: 0.1%.

With `O=C(OCCCN1CCCC1)C(O)(c1ccccc1)C1CCCCC1` (stereo not given), the inhibition was inactive: 0.6%.

Turning to `CP(=O)(Oc1ccccc1)N1CCOC1=O` (stereo not given), the inhibition was inactive: 0.8%.

Take `CCc1ccc(OP(C)(=O)Nc2cccnc2)cc1` (stereo not given): the inhibition was inactive: 1.1%.

Turning to `CC(C)(C)c1ccc(OP(C)(=O)O)cc1`, the inhibition was inactive: 2%.

As for `COc1ccccc1OP(C)(=O)Nc1ccccc1Br` (stereo not given), the inhibition is inactive: 0.5%.

Regarding `CP(=O)(Nc1ccc(Cl)cc1)Oc1ccc(F)cc1` (stereo not given), the inhibition is inactive: 0.8%.

Turning to `CN(C)C(=O)c1c([N+](=O)[O-])cc([N+](=O)[O-])cc1[N+](=O)[O-]`, the inhibition is inactive: -1.4%.

As for `CCOC(=O)c1ccc(NP(C)(=O)Oc2ccc(Cl)cc2)cc1` (stereo not given), the inhibition was inactive: 1.2%.

Regarding `CP(=O)(OC12CC3CC(CC(C3)C1)C2)OC12CC3CC(CC(C3)C1)C2`, the inhibition was inactive: 1.2%.
